Data published in ChEMBL document CHEMBL1124922 (J Med Chem, 1990).

Experiments:
[1] = Evaluated for hypersensitivity factor for (HF = IC50 AA8 / IC50 UV-4 ) in hypoxic conditions using N2 (*=data unreliable.)
Cricetulus griseus = organism: Cricetulus griseus; test: Evaluated for hypersensitivity factor (HF) (HF = IC50 AA8 / IC50 UV-4) values are intra experiment ratios; format: functional
[2] = Evaluated for ratio of CT10 value. (CT10 = aerobic CT10 / hypoxic CT10)

Structure (SMILES)	Ratio [1]	Ratio (Cricetulus griseus)	Ratio [2]
Nc1cccc(N(CCCl)CCCl)c1	16	18	1.18
BrCCN(CCBr)c1ccccc1		41	
COc1ccc(N(CCCl)CCCl)cc1		42	1.4
O=[N+]([O-])c1ccc(N(CCBr)CCBr)cc1		> 1	
O=[N+]([O-])c1ccccc1N(CCCl)CCCl	64		
O=[N+]([O-])c1ccc(N(CCI)CCI)cc1		> 1	
CS(=O)(=O)c1ccc(N(CCCl)CCCl)cc1		3.5	0.84
CN(C)C(=O)c1ccc(N(CCCl)CCCl)cc1		30	
CSc1ccc(N(CCCl)CCCl)cc1			1.2
O=[N+]([O-])c1ccc(N(CCCl)CCCl)cc1	> 5	> 5	1.7
O=Nc1ccc(N(CCCl)CCCl)cc1	19	8	
Nc1ccccc1N(CCCl)CCCl	28		
Cc1ccc(N(CCCl)CCCl)cc1		46	1.9
O=[N+]([O-])c1cccc(N(CCCl)CCCl)c1	> 1	> 1	
CS(=O)(=O)c1cccc(N(CCCl)CCCl)c1		52	
COc1cccc(N(CCCl)CCCl)c1		42	
ICCN(CCI)c1ccccc1		42	
CN(C)C(=O)c1cccc(N(CCCl)CCCl)c1		> 20	
Nc1ccc(N(CCCl)CCCl)cc1		25	1.27
